Results taken from PubChem BioAssay AID555 (SRMLSC, 2006).
This is a selection; strong and weak results do not stand in their true shares. Activity calls are given as the source filed them.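 How the source made its calls: active means ranked among the strongest by inhibition in the single 10 µM screen, a fixed top-ranked set picked for dose follow-up; inactive means the rest, inconclusive results apart.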

test system: mevalonate kinase [Streptococcus pneumoniae D39]; assay: pneumococcal mevalonate kinase activity blockers – biochemical, PK/LDH-coupled NADH absorbance, primary screen (AID 555); settings: purified MK, PK/LDH-coupled NADH absorbance 340 nm; at 10 µM; hits give high values

Structure (SMILES) | inhibition
N#CC1(Nc2ccccc2)CCN(CCc2ccccc2)CC1 | inactive: 2%
COc1ccc(NC2CCN(CCc3ccccc3)CC2)c(OC)c1 | inactive: 1%
O=C(OC1CN2CCC1CC2)C1c2ccccc2Oc2ccccc21 (configuration not stated) | inactive: 12%
CCOc1ncccc1C(=O)NCC1(N2CCOCC2)CCCCC1 | inactive: 6%
CCC(CO)(C(=O)OC1CN2CCC1CC2)c1ccccc1 (configuration not stated) | inactive: 3%
Fc1ccccc1NC1CCN(Cc2ccccc2)CC1 | active: 45%
N/C(=N\O)c1c(N)no[n+]1[O-] | inactive: 11%
